The source of these data is patent US10202379B2, “Substituted polycyclic carbamoyl pyridone derivative prodrug” (priority 2010, dated 2019).

Where two headings read alike, the source gives them in different places.

Assay [1] addresses Cap-dependant Endonuclease (CEN) (RNP fraction, PB1-PB2-PA complex) (Influenza A virus (strain A/Wilson-Smith/1933 H1N1) (Influenza A virus (strain A/WS/1933 H1N1)), UniProt P15659). The class given is biochemical, influenza A/WSN/33 virus.
Assay [2] concerns influenza virus. Nature of the assay: microbe, parasite or virus in culture. The class given is cell-based. The note with it: MDBK or MDCK cells, 3 days, WST-8.
Where [3] appears, read: parent compounds (Reference examples), room temperature, 60 minutes.
Setting [4] is: read-out: CPE EC50, parent compounds (Reference examples).

Consider `O=C1c2c(O)c(=O)ccn2N(C2c3ccccc3CCc3ccccc32)CN1Cc1ncns1` [Reference example 271], for which the IC50 in assay [1] (setting [3]) is 73 nM.
For the compound `C[C@@H](N1CN([C@@H]2c3ccccc3CSc3ccccc32)n2ccc(=O)c(O)c2C1=O)C(F)(F)F` [Reference example 414], half-maximal inhibition in assay [1] (IC50) was put at 1890 nM.
On the same count and under the same terms, then `O=C1c2c(O)c(=O)ccn2N([C@H]2c3ccccc3CSc3c(F)cccc32)CN1[C@H](CO)C(F)(F)F` [Reference example 611], with 55 nM.
As for `Cc1cccc2c1CSc1c(Cl)cccc1[C@H]2N1CN([C@H](C)C(F)(F)F)C(=O)c2c(O)c(=O)ccn21` [Reference example 612], the IC50 in assay [1] (setting [3]) amounted to 55 nM.
For `C[C@@H](N1CN([C@H]2c3ccccc3CSc3c(C#N)cccc32)n2ccc(=O)c(O)c2C1=O)C(F)(F)F` [Reference example 618], the IC50 in assay [1] (setting [3]) came to 29 nM.
On the same count and under the same terms, as for `C[C@@H](N1CN([C@H]2c3ccccc3CCc3c(Cl)cccc32)n2ccc(=O)c(O)c2C1=O)C(F)(F)F` [Reference example 639], the figure is 55 nM; as for `C[C@@H](N1CN([C@H]2c3cccc(C(F)(F)F)c3CSc3c(F)cccc32)n2ccc(=O)c(O)c2C1=O)C(F)(F)F` [Reference example 660], 36 nM.
As for `Cc1cccc2c1SCc1cccc(C)c1[C@@H]2N1CN([C@H](C)C(F)(F)F)C(=O)c2c(O)c(=O)ccn21` [compound 720], the concentration giving a half-maximal response (EC50) in assay [2] (unidentified influenza virus, 72 h, read-out: CPE EC50, parent compounds (Reference examples)) was 6.24 nM. Also, the IC50 in assay [1] (setting [3]) worked out at 19.1 nM.
For the compound `Cc1cccc2c1SCc1cccc(C)c1[C@@H]2N1CN([C@H](C)C(F)(F)F)C(=O)c2c(O)c(=O)ccn21` [compound 721], the EC50 in assay [2] (setting [4]) came out at 3.95 nM. This compound returned an IC50 in assay [1] of 6.96 nM.
`Cc1cccc2c1SCc1cccc(C)c1[C@@H]2N1CN([C@H](C)C(F)(F)F)C(=O)c2c(O)c(=O)ccn21` [compound 722]: the EC50 in assay [2] (setting [4]) turned out to be 3.78 nM. For the same compound, the IC50 in assay [1] (setting [3]) is 19.2 nM.

A word on the IC50: it is the concentration that inhibits the measured activity by half. For orientation: EC50 means the concentration at which the effect is half-maximal.
